Compound potency records, mixed from different reports. Data source: NIAID ChemDB in PubChem.

All rows: whole-cell or culture tests; organism: Mycobacterium tuberculosis

MIC bound: limit read from a one-dose screen. Neighbouring rows are from separate reports. Two numbers with a dash give a range or band. Percent inhibition refers to the dose given; in toxicity tests it is the harm to the cells. ECn is the concentration giving n% inhibition of infection, replication or growth. MIC50, MIC90 and the like: level of inhibition, or share of isolates inhibited. An empty or dashed field is not shown.

SMILES	cell line	measure	method	setting	dose	strain	changes	result
CCOC(=O)NN(C(=O)OCC)c1c(N(C)NC(C)=O)nc(N)[nH]c1=O		inhibition	BACTEC		12.5 µg/mL	H37Rv		3%
Cc1nc2ccccc2nc1C(=O)CNc1nccs1		MIC	resazurin			H37Rv		50 µg/mL
O=C1C=CC(=Nc2cc(Cl)c(O)c(Cl)c2)C=C1		inhibition	BACTEC		12.5 µg/mL	H37Rv		22%
CC(=O)NCCSCC(=O)c1nc2ccccc2nc1C		MIC	resazurin			H37Rv		50 µg/mL
Clc1cc(N2CCOCC2)nc2nc(N3CCCCC3)ccc12		inhibition	BACTEC		6.25 µg/mL	H37Rv		27%
O=C1CSC(N2CCN(c3ccc(N4C[C@H](CO)OC4=O)cc3F)C=N2)=N1		MIC	GFP / reporter gene			H37Rv		1000 µg/mL
CCOC(=O)c1cc(-c2ccccc2)n(CC(=O)NN)c1C		EC50	BACTEC			H37Rv		>6.25 µg/mL
Cc1ccc(NC(=O)c2cc([N+](=O)[O-])cc([N+](=O)[O-])c2)cc1Cl	VERO	MIC				H37Rv		1.56 µg/mL
CCOC(=O)c1cc(-c2ccc([N+](=O)[O-])cc2)n(CC(=O)N/N=C/c2ccc(O)c(OCC)c2)c1C		EC50	BACTEC			H37Rv		>6.25 µg/mL
Cc1ccc2c(N3CCOCC3)c(Cc3ccccc3)c(N3CCCCC3)nc2n1		inhibition	BACTEC		6.25 µg/mL	H37Rv		20%
CCOC(=O)c1cc(-c2ccccc2)n(CC(=O)N/N=C/c2ccc[nH]2)c1C		EC50	BACTEC			H37Rv		>6.25 µg/mL
O=C1c2ccccc2C(=O)N1C1Cc2nc3ccccc3n2C1=O		MIC	BACTEC			H37Rv		≥12.8 µg/mL
COc1ccc(-n2cc(CSC3c4ccccc4-c4ccccc43)nn2)cc1		MIC99	broth dilution			H37Rv		129.7 µM
COc1ncc(F)c2nc(S(=O)(=O)Nc3c(O)cccc3C(C)O)nn12		MIC50	visual reading			X24	INH RIF resistant	0.5 µM
O=C(O)c1ccccc1C(=O)NC1C(O)OC(CO)C(O)C1O		MIC bound	BACTEC			H37Rv		>12.5 µg/mL
S=c1oc(-c2ccncc2)nn1CN1CCN(Cc2ccccc2)CC1		MIC				H37Rv		40 µg/mL
CCN1CCN(c2[nH]n3c(=O)cc(C)nc3c2C(=O)Nc2cccc(Cl)c2Cl)CC1		MIC	resazurin			H37Rv		50 µg/mL
Cc1nc2ccccc2nc1C(=O)CN1CCN(C)CC1		MIC	resazurin			H37Rv		50 µg/mL
Clc1ccc2c(N3CCCCC3)cc(N3CCOCC3)nc2n1		EC50	BACTEC			H37Rv		>6.25 µg/mL
Cc1cc(=O)n2[nH]c(Nc3ccccc3)c(C(=O)Nc3ccccc3)c2n1		MIC	resazurin			H37Rv		50 µg/mL
NCC[C@H](O)C(=O)N[C@@H]1C[C@H](N)[C@@H](O[C@H]2O[C@H](CN)[C@@H](O)[C@H](O)[C@H]2O)[C@H](O)[C@H]1O[C@H]1O[C@H](CO)[C@@H](O)[C@H](N)[C@H]1O		MIC				BCG		0.25 µg/mL
COc1ccc2nc3ccccc3c(Nc3ccc(S(=O)(=O)Nc4nc(C)cc(C)n4)cc3)c2c1		EC50				H37Rv		<6.25 µg/mL
CCC(Cc1ccco1)C(=O)NC(N)=O		MIC bound	BACTEC			H37Rv		>12.5 µg/mL
Nc1ccc(S(=O)(=O)c2ccc(N)cc2)cc1		MBC				BCG		>128 µg/mL
O=[N+]([O-])c1ccccc1-n1cc(CSC2c3ccccc3-c3ccccc32)nn1		MIC99	broth dilution			H37Rv		>250 µM
S=c1oc(-c2ccncc2)nn1CN1CCOCC1		MIC				H37Rv		40 µg/mL
COCOC(OCOC)c1ccc([N+](=O)ONNC(=O)c2ccco2)o1		inhibition	resazurin		6.25 µg/mL	H37Rv		99%
CC(=O)N[C@H]1CN(c2ccc(N3C=NN(C4=NC(=O)CS4)CC3)c(F)c2)C(=O)O1		MIC90	resazurin			20 clinical isolates		250 µg/mL
CCOC(=O)c1c(C)c(-c2ccccc2)n(CC(=O)N/N=C/c2ccc(O)c(OCC)c2)c1C		inhibition	BACTEC		6.25 µg/mL	H37Rv		0%
COc1ccc(NC(=O)c2c(Nc3ccc(Cl)cc3)[nH]n3c(=O)cc(C)nc23)cc1		MIC	resazurin			H37Rv		12.5 µg/mL
c1ccc(-n2cc(CNC3c4ccccc4-c4ccccc43)nn2)cc1		MIC99	broth dilution			H37Rv		>295 µM
COc1ccc2nc3cc(Cl)ccc3c(Nc3ccc(S(=O)(=O)Nc4ncccn4)cc3)c2c1		EC50				H37Rv		<6.25 µg/mL
Clc1ccccc1-n1cc(CSC2c3ccccc3-c3ccccc32)nn1		MIC99	broth dilution			Specimen 192		>256 µM
COC(=O)c1ccc(CSc2ccccc2NC(=S)Nc2cccc(SC)c2)o1		MIC bound	BACTEC			H37Rv		>12.5 µg/mL
Oc1cc2ccc1Oc1ccc(cc1)CCc1ccc(c(O)c1)Oc1ccc(cc1)CC2		MIC	resazurin			H37Rv		40 µg/mL
Cc1cc(=O)n2[nH]c(N3CCCC3)c(C(=O)Nc3ccc(Cl)c(Cl)c3)c2n1		MIC	resazurin			H37Rv		25 µg/mL
C1=C2CCCC/C=C\C=C\CCN3CC[C@@H]4[C@H](CCCCCC/C=C\C=C/CCN(C2)C[C@H]14)C3		MIC				H37Rv (RIF-resistant)		3.13 µg/mL
CCOC(=O)c1cc(-c2ccc(Cl)cc2)n(CCC(=O)NN)c1C		inhibition	BACTEC		6.25 µg/mL	H37Rv		0%
O=C(NC1CCCCC1)N(C(=O)c1cnccn1)C1CCCCC1		MIC		14 d		331/88		500 µM
COc1c2ccoc2nc2c(OC)c(OCC(O)C(C)(C)O)ccc12		inhibition	BACTEC		12.8 µg/mL	H37Rv		9%
COC(=O)NC[C@H]1CN(c2ccc(N3C=NN(C(N)=O)CC3)c(F)c2)C(=O)O1		MIC	GFP / reporter gene			H37Rv		250 µg/mL
Cc1nc2nc(S(=O)(=O)Nc3c(Br)ccc4cccnc34)nn2c2c1CCC2		MIC50	visual reading			M23	INH RIF resistant	2 µM
CC1(C)Nc2cccc3c(N=Nc4ccc(N=Nc5ccccc5)c5ccccc45)ccc(c23)N1		MIC	BACTEC			H37Rv		1 µg/mL
CC(=O)c1ccc([N+](=O)ONNC(=O)c2cc(/C=C\c3ccco3)on2)cc1		inhibition	resazurin		6.25 µg/mL	H37Rv		66%
CC(C)=CCC1=C(O)C(c2ccccc2)=CC(=O)C1=O		MIC	BACTEC			H37Rv		128 µg/mL
Cc1ccc(Nc2[nH]n3c(=O)cc(C)nc3c2C(=O)Nc2ccc(Cl)cc2)c(C)c1		MIC	resazurin			H37Rv		50 µg/mL
O=C(CCCC(=O)N/N=C/c1cccc2ccccc12)N/N=C/c1cccc2ccccc12		MIC	BACTEC			H37Rv		≥12.5 µg/mL
CC(=O)NC[C@H]1CN(c2ccc(N3C=NOCC3)c(F)c2)C(=O)O1		MIC90	resazurin			20 clinical isolates		500 µg/mL
NNC(=O)c1ccncc1		MIC		21 d		H37Rv 331/88		0.5–1 µM
Cc1ccc2c(O)c(C)c(=O)[nH]c2n1		inhibition	BACTEC		6.25 µg/mL	H37Rv		0%
O=C(Oc1ccc(Br)cc1C(=O)Nc1ccc(C(F)(F)F)cc1)c1cnccn1		MIC		14 d		multidrug resistant 9449/2006		0.5 µM
Cc1cc(=O)n2[nH]c(Nc3ccc(Cl)c(Cl)c3)c(C(N)=O)c2n1		MIC	resazurin			H37Rv		6.25 µg/mL
O=C(N/N=C/c1cccnc1)C(=O)Nc1cccc(C(F)(F)F)c1		inhibition	BACTEC		12.5 µg/mL	H37Rv		-19%
CC(=O)NC[C@H]1CN(c2ccc(N3CCSCC3)c(F)c2)C(=O)O1		MIC90						1 µg/mL
ClCc1c(-c2ccccc2)oc(-c2ccccc2)c1CCl	VERO	MIC	BACTEC			H37Rv		>12.5 µg/mL
COc1ccc2nc3ccccc3c(Nc3ccc(S(=O)(=O)N=C(N)N)cc3)c2c1		EC50				H37Rv		>6.25 µg/mL
CC1CCN(Cn2nc(-c3ccncc3)oc2=O)CC1		MIC				H37Rv		2.5 µg/mL
O=NC1=C(O)/C(=N/O)CCC1=O		inhibition	BACTEC		12.5 µg/mL	H37Rv		2%
O=S(=O)(Cc1cn(-c2ccc(F)cc2)nn1)C1c2ccccc2-c2ccccc21		MIC99	broth dilution			H37Rv		123 µM
NC(=O)N1CCN(c2ccc(N3C[C@H](CO)OC3=O)cc2F)C=N1		MIC	GFP / reporter gene			H37Rv		1000 µg/mL
COc1ccc2nc3cc(Cl)ccc3c(Nc3ccc(S(=O)(=O)NC(C)=O)cc3)c2c1		EC50				H37Rv		>6.25 µg/mL
NNC(=O)C1=CCN(CC(=O)c2ccc([N+](=O)[O-])cc2)C=C1		inhibition	resazurin		6.25 µg/mL	H37Rv		99%
O=c1ccc2c(N3CCCCC3)cc(N3CCOCC3)nc2[nH]1		EC50	BACTEC			H37Rv		>6.25 µg/mL
O=C1O[C@@H](CO)CN1c1ccc(N2C=NOCC2)c(F)c1		MIC	GFP / reporter gene			H37Rv		500 µg/mL
O=C(Oc1ccc(Cl)cc1)c1cnccn1		MIC		21 d		331/88		250 µM
Cc1cc(Cl)[nH]c2ccc3c(=O)c(C(=O)NN=Cc4ccccc4O)cnc3c12		MIC				H37Rv		200 µg/mL
O=[N+]([O-])c1ccc(-n2cc(CSC3c4ccccc4-c4ccccc43)nn2)cc1		MIC99	broth dilution			H37Rv		>250 µM
CC1CCCN(Cn2nc(-c3ccncc3)oc2=S)C1		MIC				H37Rv		10 µg/mL
COc1ccc(NC(=O)c2c(N3CCOCC3)[nH]n3c(=O)cc(C)nc23)cc1		MIC	resazurin			H37Rv		25 µg/mL
COC1OC(CO)C(NC(N)=O)C1O		inhibition	BACTEC		12.5 µg/mL	H37Rv		-6%
CCOC(=O)c1cnc2c(ccc3[nH]c(Cl)cc(C)c32)c1=O		MIC				H37Rv		500 µg/mL
C[C@@H]1Cn2cc(C(=O)O)c(=O)c3cc(F)c(N4CCN(/C(N)=N/C(N)=NCCCCCCN=C(N)/N=C(\N)N5CCN(c6c(F)cc7c(=O)c(C(=O)O)cn8c7c6O[C@@H](C)C8)CC5)CC4)c(c32)O1		MIC	broth dilution			ATCC 35822		1.25 µg/mL
CC#CC#C/C=C1\C=CC2(CCCCO2)O1		inhibition	BACTEC		12.5 µg/mL	H37Rv		44%
O=C(Oc1ccc(Cl)cc1C(=O)Nc1ccc(Cl)cc1)c1cnccn1		MIC		14 d		H37Rv 331/88		2 µM
O=c1[nH]c2nc(N3CCNCC3)ccc2cc1-c1ccccc1		EC50	BACTEC			H37Rv		>6.25 µg/mL
COc1ccc2nc3ccccc3c(Nc3ccc(S(=O)(=O)Nc4nccs4)cc3)c2c1		EC50				H37Rv		<6.25 µg/mL
O=Cc1ccc([N+](=O)ONNC(=O)c2cccnc2)cc1		inhibition	resazurin		6.25 µg/mL	H37Rv		51%
Nc1nc2nn(-c3ccc(C(=O)O)cc3)nc2c(=O)[nH]1		MIC bound	BACTEC			H37Rv		>6.25 µg/mL
Cc1cc(Cl)[nH]c2ccc3c(=O)c(C(=O)NN4C(=O)C(Cl)C4c4cccc([N+](=O)[O-])c4O)cnc3c12		MIC				H37Rv		200 µg/mL
COc1ccc(C2C(Cl)C(=O)N2NC(=O)Cc2ccccc2)cc1		MIC bound	BACTEC			H37Rv		>12.5 µg/mL
CCOC(=O)c1c(C)c(-c2ccccc2)n(CC(=O)N/N=C/c2cn(C(C)=O)c3ccccc23)c1C		inhibition	BACTEC		6.25 µg/mL	H37Rv		0%
O/N=C(\Cc1nc2cc(Cl)c(Cl)cc2nc1C/C(=N\O)c1ccncc1)c1ccncc1		inhibition	BACTEC		6.25 µg/mL	H37Rv		87%
CC1CCCCN1Cn1nc(-c2ccncc2)oc1=S		MIC				H37Rv		40 µg/mL
Cc1cc(NCCCCCCNc2cc(C)nc3cc(N(C)C)ccc23)c2ccc(N(C)C)cc2n1		MIC bound	BACTEC			H37Rv		>12.5 µg/mL
CCN(CC)CC(=O)c1nc2ccccc2nc1C		MIC	resazurin			H37Rv		50 µg/mL

A second listing of 6 rows from above:

{"SMILES": "CC(C)=CCC1=C(O)C(c2ccccc2)=CC(=O)C1=O", "measure": "MIC", "method": "BACTEC", "strain": "H37Rv", "result": "128 µg/mL"}
{"SMILES": "COCOC(OCOC)c1ccc([N+](=O)ONNC(=O)c2ccco2)o1", "measure": "inhibition", "method": "resazurin", "dose": "6.25 µg/mL", "strain": "H37Rv", "result": "99%"}
{"SMILES": "Cc1cc(=O)n2[nH]c(Nc3ccc(Cl)c(Cl)c3)c(C(N)=O)c2n1", "measure": "MIC", "method": "resazurin", "strain": "H37Rv", "result": "6.25 µg/mL"}
{"SMILES": "Cc1nc2nc(S(=O)(=O)Nc3c(Br)ccc4cccnc34)nn2c2c1CCC2", "measure": "MIC50", "method": "visual reading", "strain": "M23", "changes": "INH RIF resistant", "result": "2 µM"}
{"SMILES": "NCC[C@H](O)C(=O)N[C@@H]1C[C@H](N)[C@@H](O[C@H]2O[C@H](CN)[C@@H](O)[C@H](O)[C@H]2O)[C@H](O)[C@H]1O[C@H]1O[C@H](CO)[C@@H](O)[C@H](N)[C@H]1O", "measure": "MIC", "strain": "BCG", "result": "0.25 µg/mL"}
{"SMILES": "O=C(Oc1ccc(Br)cc1C(=O)Nc1ccc(C(F)(F)F)cc1)c1cnccn1", "measure": "MIC", "setting": "14 d", "strain": "multidrug resistant 9449/2006", "result": "0.5 µM"}